Measured data: PubChem BioAssay AID1224833 (University of Georgia, 2016)

Aim: 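Host factors restraining rotavirus as candidate antiviral genes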 (primary screen)
Cells: monkey MA104 kidney cells
Knock-down reagent: siRNA pool against human genes, 50 nM
Time to read-out: 48 h knock-down before infection; read 24 h after infection
Challenge: infection with rotavirus strain RV3 two days after transfection; infectious dose for this stage not given
Measurement: 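Rotavirus antigen per well by fluorescent immunoassay, normalised to non-targeting control wells on each plate and given as a standard z-score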
Reading the numbers: z-score vs non-targeting control: higher = more rotavirus replication than with non-targeting control
Call rule: In these data the active calls have z-score vs non-targeting control at about -1 or lower, or at about 1 or higher
Calls: active = z-score beyond 1 either way; inactive = z-score within 1 of zero
This is a random part of about 12,000 reagents. In the full data, about 5,600 (46%) were called active. 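Active calls cover z-scores past 1 in both directions, so they include lowered as well as raised rotavirus replication.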 Reagent sequences are not shown.

Gene,z-score vs non-targeting control,outcome
CYTL1 (cytokine like 1),-1.18,active
DNAAF11 (dynein axonemal assembly factor 11),-1.79,active
C6orf62 (chromosome 6 open reading frame 62),-1.43,active
CETN3 (centrin 3),-1.03,active
RASGRF1 (Ras protein specific guanine nucleotide releasing factor 1),0.274,inactive
LYST (lysosomal trafficking regulator),-1.04,active
FGF9 (fibroblast growth factor 9),0.993,inactive
ZNF714 (zinc finger protein 714),1.34,active
CRTAP (cartilage associated protein),-0.284,inactive
TNFRSF17 (TNF receptor superfamily member 17),0.823,inactive
"PLEKHH1 (pleckstrin homology, MyTH4 and FERM domain containing H1)",-1.34,active
PRR32 (proline rich 32),-1.42,active
LINC01587 (long independently transcribed non-coding RNA 1587),0.12,inactive
SCAF11 (SR-related CTD associated factor 11),0.978,inactive
SURF6 (surfeit 6),-0.42,inactive
ENPP5,-1.4,active
GGNBP2 (gametogenetin binding protein 2),-1.32,active
AP1G1 (adaptor related protein complex 1 subunit gamma 1),-0.396,inactive
SLC2A13,1.13,active
ZNF24 (zinc finger protein 24),-1.71,active
PCDH19 (protocadherin 19),0.174,inactive
MKI67 (marker of proliferation Ki-67),1.51,active
CREG2 (cellular repressor of E1A stimulated genes 2),0.688,inactive
CYP11B1 (cytochrome P450 family 11 subfamily B member 1),-1.67,active
"RAB6D (RAB6D, member RAS oncogene family)",1.71,active
RSAD1 (radical S-adenosyl methionine domain containing 1),2.23,active
EFCAB14 (EF-hand calcium binding domain 14),0.16,inactive
BCKDHA (branched chain keto acid dehydrogenase E1 subunit alpha),-0.673,inactive
SLITRK3 (SLIT and NTRK like family member 3),-2.61,active
UPK1B (uroplakin 1B),-0.126,inactive
MRPL3 (mitochondrial ribosomal protein L3),-0.765,inactive
ECM2 (extracellular matrix protein 2),-0.761,inactive
ARID4A (AT-rich interaction domain 4A),0.909,inactive
NKTR (natural killer cell triggering receptor),-1.35,active
ATP11A (ATPase phospholipid transporting 11A),-0.757,inactive
S100A7A (S100 calcium binding protein A7A),-0.255,inactive
DDX41 (DEAD-box helicase 41),-1.02,active
WNT6 (Wnt family member 6),-0.289,inactive
SLC35B1,0.176,inactive
DEFB129 (defensin beta 129),-1.05,active
EFEMP1 (EGF-like fibulin extracellular matrix protein 1),-1.96,active
XKR8 (XK related 8),2.71,active
SHARPIN (SHANK associated RH domain interactor),0.254,inactive
NEGR1 (neuronal growth regulator 1),0.452,inactive
FAM114A2 (family with sequence similarity 114 member A2),0.409,inactive
EMC2 (ER membrane protein complex subunit 2),1.43,active
ATP5ME (ATP synthase membrane subunit e),0.743,inactive
"NPLOC4 (NPL4 homolog, ubiquitin recognition factor)",-1.52,active
LIMCH1 (LIM and calponin homology domains 1),-0.65,inactive
SHTN1 (shootin 1),-2.32,active
SNX6 (sorting nexin 6),-0.889,inactive
SLC25A5,0.623,inactive
IFNL1 (interferon lambda 1),-0.632,inactive
CD52 (CD52 molecule),-0.443,inactive
OR4K2 (olfactory receptor family 4 subfamily K member 2),0.55,inactive
RAB3GAP2 (RAB3 GTPase activating non-catalytic protein subunit 2),0.7,inactive
RSRP1 (arginine and serine rich protein 1),0.882,inactive
FERMT3 (FERM domain containing kindlin 3),0.233,inactive
BRWD3 (bromodomain and WD repeat domain containing 3),0.487,inactive
CHURC1 (churchill domain containing 1),-1.67,active
MPC1,-0.918,inactive
E2F1 (E2F transcription factor 1),-2.01,active
COG3 (component of oligomeric golgi complex 3),0.606,inactive
MPHOSPH9 (M-phase phosphoprotein 9),-1.76,active

13 consecutive entries from above, quoted:
Gene,z-score vs non-targeting control,outcome
RSAD1 (radical S-adenosyl methionine domain containing 1),2.23,active
EFCAB14 (EF-hand calcium binding domain 14),0.16,inactive
BCKDHA (branched chain keto acid dehydrogenase E1 subunit alpha),-0.673,inactive
SLITRK3 (SLIT and NTRK like family member 3),-2.61,active
UPK1B (uroplakin 1B),-0.126,inactive
MRPL3 (mitochondrial ribosomal protein L3),-0.765,inactive
ECM2 (extracellular matrix protein 2),-0.761,inactive
ARID4A (AT-rich interaction domain 4A),0.909,inactive
NKTR (natural killer cell triggering receptor),-1.35,active
ATP11A (ATPase phospholipid transporting 11A),-0.757,inactive
S100A7A (S100 calcium binding protein A7A),-0.255,inactive
DDX41 (DEAD-box helicase 41),-1.02,active
WNT6 (Wnt family member 6),-0.289,inactive

Continued:
Gene,z-score vs non-targeting control,outcome
PLEKHF1 (pleckstrin homology and FYVE domain containing 1),-0.467,inactive
PARVG (parvin gamma),-0.798,inactive
SLC30A8,-0.583,inactive
CTTN (cortactin),1.01,active
ELOVL2 (ELOVL fatty acid elongase 2),0.268,inactive
ZDHHC9 (zDHHC palmitoyltransferase 9),0.0837,inactive
CNPY4 (canopy FGF signaling regulator 4),0.535,inactive
ESPNL (espin like),-0.997,inactive
ZXDB (zinc finger X-linked duplicated B),-2.07,active
TAF13 (TATA-box binding protein associated factor 13),0.624,inactive
SCD (stearoyl-CoA desaturase),-1.46,active
"CYCS (cytochrome c, somatic)",-1.69,active
SCARA5 (scavenger receptor class A member 5),-1.32,active
CIP2A (cellular inhibitor of PP2A),1.85,active
CCL8 (C-C motif chemokine ligand 8),0.249,inactive
FAM221B (family with sequence similarity 221 member B),0.212,inactive
RMI2 (RecQ mediated genome instability 2),0.571,inactive
SAMD10 (sterile alpha motif domain containing 10),0.224,inactive
SLC25A30,-2.6,active
"ERCC8 (ERCC excision repair 8, CSA ubiquitin ligase complex subunit)",2.12,active
PER2 (period circadian regulator 2),0.96,inactive
"ADH5 (alcohol dehydrogenase 5 (class III), chi polypeptide)",-2.48,active
SLC32A1,0.319,inactive
IGDCC3 (immunoglobulin superfamily DCC subclass member 3),2.17,active
EIF4E (eukaryotic translation initiation factor 4E),-2.01,active
KNTC1 (kinetochore associated 1),-1.21,active
SNRNP200 (small nuclear ribonucleoprotein U5 subunit 200),-2,active
GNGT1 (G protein subunit gamma transducin 1),-1.79,active
MTMR10 (myotubularin related protein 10),-0.785,inactive
ARPIN (actin related protein 2/3 complex inhibitor),1.14,active
SMYD5 (SMYD family member 5),1.55,active
TPPP3 (tubulin polymerization promoting protein family member 3),0.432,inactive
KLRC1 (killer cell lectin like receptor C1),-2.16,active
PUS7 (pseudouridine synthase 7),2.76,active
ATP6V1C1 (ATPase H+ transporting V1 subunit C1),-1.82,active
MT4 (metallothionein 4),-0.0666,inactive
PPP4R2 (protein phosphatase 4 regulatory subunit 2),-1.12,active
GNB4 (G protein subunit beta 4),0.725,inactive
PRMT6 (protein arginine methyltransferase 6),-0.868,inactive
ADGRG1 (adhesion G protein-coupled receptor G1),-1.54,active
PGAP3 (post-GPI attachment to proteins phospholipase 3),-1.81,active
POLN (DNA polymerase nu),-1.2,active
LBR (lamin B receptor),-1.54,active
BLNK (B cell linker),-0.872,inactive
MOB3C (MOB kinase activator 3C),2.42,active
NDUFS2 (NADH:ubiquinone oxidoreductase core subunit S2),0.909,inactive
